Anti-infective test results gathered from many reports (values: NIAID ChemDB through PubChem).

All rows: cytotoxicity tests; cells: VERO; measure: CC50

Neighbouring rows are from separate reports. CCn: concentration that lowers growth or viability of the cells by n%.

O=C(Cc1nn(Cc2ccc(Br)cc2F)c(=O)c2ccccc12)N/N=C/c1ccccc1C(F)(F)F ; read by: MTT ; value: 117.2 µM
Cc1c2ccncc2c(C)c2c1[nH]c1ccc(O)cc12 ; value: >10 µg/mL
CC#Cc1cn([C@@H]2O[C@H](COP(=O)(O)Oc3ccccc3)[C@@H](O)[C@@H]2O)c(=O)[nH]c1=O ; value: >500 µM
Cc1nc(-c2ccc(Cl)cc2)sc1-c1csc(-c2ccc(F)cc2)n1 ; read by: sulforhodamine ; value: >80 µM
CC12C(=O)c3cccc(O)c3C(=O)C1CC13OC12C(=O)c1c(O)cccc1C3=O ; value: 3.89 µg/mL
Nc1ncn([C@@H]2O[C@H](CO)[C@@H](O)[C@H]2O)c(=O)n1 ; value: 320 µg/mL
NNC(=O)c1c[nH]cc1-c1ccc(Cl)cc1 ; value: 16 µg/mL
CCCCCC(=O)N1[C@H]2CC[C@@H]1C(n1cnc3c(Cl)ncnc31)C2 ; read by: MTS ; value: 104 µM
[O-][n+]1ccc(CC2=C[C@@]3(O)CC/C=C\CCCCN4CC[C@@H]2[C@]2(C[C@@H]5CCCCCCN5C23)C4)cc1 ; value: >4.76 µg/mL
CC#Cc1cn([C@@H]2O[C@H](COP(=O)(O)Oc3cccc(Cl)c3)[C@@H](O)[C@@H]2O)c(=O)[nH]c1=O ; value: 79 µM
Cc1ccc(NCCC2CCCN3CCCCC23)c2c(=O)c3ccccc3sc12 ; value: 1.92 µg/mL
NC(=O)c1c[nH]cc1-c1ccc(Cl)cc1 ; value: 16 µg/mL
O=C(Cc1nn(Cc2ccc(Br)cc2F)c(=O)c2ccccc12)N/N=C/c1cccc([N+](=O)[O-])c1 ; read by: MTT ; value: >122.5 µM
O=C1CCCN2C(CC1)C[C@]13CN4CCCC/C=C\CC[C@](O)(C=C(c5nccc6c5[nH]c5ccccc56)[C@@H]1CC4)C23 ; value: >4.76 µg/mL
COc1cc(/C=N/NC(=O)Cc2nn(Cc3ccc(Br)cc3F)c(=O)c3ccccc23)ccc1O ; read by: MTT ; value: >122.2 µM
CC/C(=N\NC(=O)c1ccncc1)c1ccc(Cl)cc1 ; value: >62.5 µg/mL
O=C[C@@H](CO)O[C@H](C=O)n1ccc(=O)[nH]c1=O ; read by: neutral red ; value: 210 µg/mL
OC1CCCN2CCC1O[C@@]13CC[C@@H](OC[C@]45CN6CCCC/C=C\CC[C@](O)(C=C(c7nccc8c7[nH]c7ccccc78)[C@@H]4CC6)C25)[C@@H](O)CCN1C1[C@]2(CN4CCCC/C=C/CC[C@]1(O)C=C(c1nccc5c1[nH]c1ccccc15)[C@@H]2CC4)C3 ; value: >4.76 µg/mL
O=C(NC1N=C(c2ccccc2)c2ccccc2NC1=O)c1cccnc1 ; value: 3 µM
CO[C@H]1/C=C/O[C@@]2(C)Oc3c(C)c(O)c4c(O)c(c(/C=N/Nc5ccc([N+](=O)[O-])cc5[N+](=O)[O-])c(O)c4c3C2=O)NC(=O)/C(C)=C\C=C\[C@H](C)[C@H](O)[C@@H](C)[C@@H](O)[C@@H](C)[C@H](OC(C)=O)[C@@H]1C ; value: 13.34 µg/mL
NC(=O)c1[nH]nc([C@@H]2O[C@H](CO)[C@@H](O)[C@H]2O)c1O ; value: 91 µg/mL
C[C@]12CC[C@H](O)C[C@H]1CC[C@@H]1[C@@H]2C[C@@H](O)[C@]2(C)[C@@H](C3=CC(=O)OC3)CC[C@]12O ; read by: MTT ; value: >250 µM
O[C@]12C=C(Cc3cc4cc(F)ccc4[nH]3)[C@@H]3CCN(CCCC/C=C\CC1)C[C@@]31C[C@@H]3CCCCCCN3C12 ; value: >4.76 µg/mL
CC1=CC(=O)c2c(O)cccc2C1=O ; value: 3.73 µg/mL
O=C/C=C/c1ccc([N+](=O)[O-])cc1Cl ; value: 6.8 µg/mL
O=c1cc(-c2ccccc2)oc2cc(O)cc(O)c12 ; value: 10 µg/mL
N#CC1(c2nc3ccccc3o2)C(=O)C(=O)N(C2C3CC4CC(C3)CC2C4)C(=O)C1=O ; value: >10 µg/mL
CC#Cc1cn([C@@H]2O[C@H](COP(=O)(O)OCC(F)(F)F)[C@@H](O)[C@@H]2O)c(=O)[nH]c1=O ; value: >250 µM
C[C@H]1OC(O[C@H]2[C@@H](O)C[C@H](O[C@@]3(C)[C@@H](O)C[C@H](O[C@H]4CC[C@@]5(C)[C@H](CC[C@@H]6[C@@H]5C[C@@H](O)[C@]5(C)[C@@H](C7=CC(=O)OC7)CC[C@]65O)C4)O[C@@H]3C)O[C@@H]2C)C[C@H](O)[C@@H]1O ; read by: MTT ; value: 5.57 µM
C[C@H]1c2cccc(O)c2C(O)=C2C(=O)[C@]3(O)C(O)=C(C(N)=O)C(=O)[C@@H](N(C)C)[C@@H]3[C@@H](O)[C@@H]21 ; value: >10 µM
O=c1[nH]c(=O)n([C@@H]2O[C@H](CO)[C@@H](O)[C@H]2O)cc1F ; value: 0.32 µg/mL
CC#Cc1cn([C@@H]2O[C@H](CO)[C@@H](O)[C@@H]2O)c(=O)[nH]c1=O ; value: >500 µM
CCC(Oc1ccc(-c2nc(N)nc(N)n2)cc1)c1ccccc1 ; read by: MTT ; value: 324 µM
CC1=C(C2=C(C)C(=O)c3cccc(O)c3C2=O)C(=O)c2c(O)cccc2C1=O ; value: 608 µg/mL
Cc1nc(-c2ccccc2)sc1-c1csc(-c2ccc(Cl)cc2)n1 ; read by: sulforhodamine ; value: >80 µM
CC(=O)OC1CC2C(C)(C)CCCC2(C)C2C(=O)C(O)=C(C(C)C)C(=O)C12 ; value: 0.5 µg/mL
O[C@]12C=C(Cc3cnccn3)[C@@H]3CCN(CCCC/C=C\CC1)C[C@@]31C[C@@H]3CCCCCCN3C12 ; value: >4.76 µg/mL
[CH3][Sn]([CH3])([Cl])[Br].c1cnc2c(c1)ccc1cccnc12 ; value: 0.77 µg/mL
CC(=O)O[C@H]1[C@@H](O)C[C@H](O[C@H]2[C@@H](O)C[C@H](O[C@H]3[C@@H](O)C[C@H](O[C@H]4CC[C@@]5(C)[C@H](CC[C@@H]6[C@@H]5CC[C@]5(C)[C@@H](C7=CC(=O)OC7)CC[C@]65O)C4)O[C@@H]3C)O[C@@H]2C)O[C@@H]1C ; read by: MTT ; value: 10.55 µM
COc1cc(-c2nc(N)nc(N)n2)ccc1OCc1ccc(F)cc1 ; read by: MTT ; value: 360 µM
CC#Cc1cn([C@@H]2O[C@H](COP(=O)(O)OCC)[C@@H](O)[C@@H]2O)c(=O)[nH]c1=O ; value: >250 µM
NC1=NCN([C@@H]2O[C@H](CO)[C@@H](O)[C@H]2O)C(=O)N1 ; read by: neutral red ; value: 9.8 µg/mL
COc1ccc(-c2nc(N)nc(N)n2)cc1OCc1ccc(F)cc1 ; read by: MTT ; value: 439 µM
NC(=O)c1c[se]c([C@@H]2O[C@H](CO)[C@@H](O)[C@H]2O)n1 ; value: 610 µg/mL
C/C(=N\NC(=O)Cc1nn(Cc2ccc(Br)cc2F)c(=O)c2ccccc12)c1ccc(C)cc1 ; read by: MTT ; value: >126.7 µM
Cn1cc(NC(=O)c2cc(NC(=O)CCCCCCC(=O)Nc3cc(C(=O)Nc4cc(C(=O)NCCC(N)=[NH2+])n(C)c4)n(C)c3)cn2C)cc1C(=O)NCCC(N)=[NH2+] ; value: 1.8 µg/mL
C[C@H]1CC(=O)c2c(O)cccc2[C@H]1O ; value: 0.15 µg/mL
C/C(=N\NC(=O)Cc1nn(Cc2ccc(Br)cc2F)c(=O)c2ccccc12)c1ccc(F)cc1 ; read by: MTT ; value: 125.7 µM
COc1ccc(COc2cc(-c3nc(N)nc(N)n3)ccc2OC)cc1 ; read by: MTT ; value: 399 µM
Cn1cc(NC(=O)c2cc(NC(=O)CN=C(N)N)cn2C)cc1C(=O)NCCC(=N)N ; value: 28.29 µg/mL
O=[N+]([O-])c1c(Cl)cccc1-c1c[nH]cc1Cl ; value: 8 µg/mL
O=C(OCc1ccccc1)c1coc(-c2ccccc2)n1 ; read by: MTS / absorbance ; value: 121 µM
CC(Oc1ccc(-c2nc(N)nc(N)n2)cc1)c1ccc(Cl)cc1Cl ; read by: MTT ; value: 405 µM
O[C@]12C=C(Cc3nccc4ccccc34)[C@@H]3CCN(CCCC/C=C\CC1)C[C@@]31C[C@@H]3CCCCCCN3C12 ; value: >4.76 µg/mL
CC[n+]1c(-c2ccccc2)c2cc(N)ccc2c2ccc(N)cc21 ; value: 17.08 µg/mL
O=[N+]([O-])c1c[nH]cc1-c1ccc(Cl)cc1Cl ; value: 1 µg/mL
O=C(NNC=Nc1ccc(C(=O)O)c(O)c1)c1ccncc1 ; value: >62.5 µg/mL
CC(Oc1ccc(-c2nc(N)nc(N)n2)cc1)c1ccccc1 ; read by: MTT ; value: 315.6 µM
OCc1cn(Cc2ccccc2Cl)cc1-c1ccc(Cl)cc1 ; value: 15 µg/mL
Nc1ncnc2c1[nH]c[n+]2C1C[C@@H]2CC[C@H]1[NH2+]2.O=C([O-])C(F)(F)F.O=C([O-])C(F)(F)F ; read by: MTS ; value: >109 µM
O=C1c2ccccc2C(=O)c2sc(Nc3ccc(Cl)cc3)nc21 ; value: 3 µg/mL
O=c1cnn([C@@H]2O[C@H](CO)[C@@H](O)[C@H]2O)c(=O)[nH]1 ; value: 201 µg/mL
Clc1ncnc2c1ncn2C1C[C@@H]2CC[C@H]1[NH2+]2.O=C([O-])C(F)(F)F ; read by: MTS ; value: 55 µM
C[C@H]1O[C@@H](O[C@H]2CC[C@@]3(C)[C@H](CC[C@@H]4[C@@H]3C[C@@H](O)[C@]3(C)[C@@H](C5=CC(=O)OC5)CC[C@]43O)C2)C[C@H](O)[C@@H]1O[C@H]1C[C@H](O)[C@H](O[C@H]2C[C@H](O)[C@H](O[C@@H]3C[C@H](CO)[C@@H](O)[C@H](O)[C@H]3O)[C@@H](C)O2)[C@@H](C)O1 ; read by: MTT ; value: 22.15 µM
ClCc1c(-c2ccccc2)oc(-c2ccccc2)c1CCl ; value: >50 µg/mL
CCC(=O)NC1N=C(c2ccccc2)c2ccccc2NC1=O ; value: 2.5 µM
Cc1ccc(-c2nc(C)c(-c3csc(-c4ccc(Br)cc4)n3)s2)cc1 ; read by: sulforhodamine ; value: >80 µM
C[C@H]1O[C@@H](O[C@H]2[C@@H](O)C[C@H](O[C@H]3[C@@H](O)C[C@H](O[C@H]4CC[C@@]5(C)[C@H](CC[C@@H]6[C@@H]5CC[C@]5(C)[C@@H](C7=CC(=O)OC7)CC[C@]65O)C4)O[C@@H]3C)O[C@@H]2C)C[C@H](O)[C@@H]1O ; read by: MTT ; value: 5.67 µM
O=C1Nc2ccccc2C(c2ccccc2)=NC1NCc1cccc([N+](=O)[O-])c1 ; value: 30 µM
Cc1ccc(NC(=O)c2cc([N+](=O)[O-])cc([N+](=O)[O-])c2)cc1Cl ; value: >10 µg/mL
CC#Cc1cn([C@@H]2O[C@H](COP(=O)(NCCC)Oc3ccccc3)[C@@H](O)[C@@H]2O)c(=O)[nH]c1=O ; value: 125 µM
CCc1cn([C@H]2C[C@H](O)[C@@H](CO)S2)c(=O)[nH]c1=O ; value: >1800 µM
O=[N+]([O-])c1c[nH]cc1-c1cccc(Cl)c1Cl ; value: 1 µg/mL
C[C@H]1O[C@@H](O[C@H]2[C@@H](O)C[C@H](O[C@H]3CC[C@@]4(C)[C@H](CC[C@@H]5[C@@H]4C[C@@H](O)[C@]4(C)[C@@H](C6=CC(=O)OC6)CC[C@]54O)C3)O[C@@H]2C)C[C@H](O)[C@@H]1O ; read by: MTT ; value: 174 µM
CC(Oc1ccc(-c2nc(N)nc(N)n2)cc1)C1CCCC1 ; read by: MTT ; value: 405 µM
O=c1c(O)c(-c2ccc(O)cc2)oc2cc(O)cc(O)c12 ; value: 20 µg/mL
CN(C)CCNC(=O)c1cccc2nc3c(ccc4ccccc43)nc12.Cl ; value: 0.63 µg/mL
CO[C@H]1C[C@H](O[C@H]2CC[C@]3(C=O)[C@H]4CC[C@]5(C)[C@@H](C6=CC(=O)OC6)CC[C@]5(O)[C@H]4CC[C@]3(O)C2)O[C@H](C)[C@H]1O ; read by: MTT ; value: >250 µM
CCCCc1[nH]ccc2c(C)c3nc4ccccc4c3cc12 ; value: 1.6 µg/mL
Cc1ccc(C(=O)Nc2ccc(S(=O)(=O)O)c3cc(S(=O)(=O)O)cc(S(=O)(=O)O)c23)cc1NC(=O)c1cccc(NC(=O)Nc2cccc(C(=O)Nc3cc(C(=O)Nc4ccc(S(=O)(=O)O)c5cc(S(=O)(=O)O)cc(S(=O)(=O)O)c45)ccc3C)c2)c1 ; value: 150 µg/mL
CO[C@H]1/C=C/O[C@@]2(C)Oc3c(C)c(O)c4c(O)c(c5sc(N)nc5c4c3C2=O)NC(=O)/C(C)=C\C=C\[C@H](C)[C@H](O)[C@@H](C)[C@@H](O)[C@@H](C)[C@H](OC(C)=O)[C@@H]1C ; value: >10 µg/mL
CC(Oc1ccc(-c2nc(N)nc(N)n2)cc1)c1ccc(Cl)cc1 ; read by: MTT ; value: 354 µM
Nc1ccn(C[C@@H](CO)OCP(=O)(O)O)c(=O)n1 ; value: 43 µg/mL
O=C(N/N=C/NC(=O)c1cnccn1)c1ccncc1 ; value: >10 µg/mL

A second listing of 9 rows from above:

O=C(Cc1nn(Cc2ccc(Br)cc2F)c(=O)c2ccccc12)N/N=C/c1cccc([N+](=O)[O-])c1 ; read by: MTT ; value: >122.5 µM
ClCc1c(-c2ccccc2)oc(-c2ccccc2)c1CCl ; value: >50 µg/mL
Cc1ccc(NCCC2CCCN3CCCCC23)c2c(=O)c3ccccc3sc12 ; value: 1.92 µg/mL
CC/C(=N\NC(=O)c1ccncc1)c1ccc(Cl)cc1 ; value: >62.5 µg/mL
O[C@]12C=C(Cc3cnccn3)[C@@H]3CCN(CCCC/C=C\CC1)C[C@@]31C[C@@H]3CCCCCCN3C12 ; value: >4.76 µg/mL
C[C@H]1O[C@@H](O[C@H]2CC[C@@]3(C)[C@H](CC[C@@H]4[C@@H]3C[C@@H](O)[C@]3(C)[C@@H](C5=CC(=O)OC5)CC[C@]43O)C2)C[C@H](O)[C@@H]1O[C@H]1C[C@H](O)[C@H](O[C@H]2C[C@H](O)[C@H](O[C@@H]3C[C@H](CO)[C@@H](O)[C@H](O)[C@H]3O)[C@@H](C)O2)[C@@H](C)O1 ; read by: MTT ; value: 22.15 µM
CC#Cc1cn([C@@H]2O[C@H](CO)[C@@H](O)[C@@H]2O)c(=O)[nH]c1=O ; value: >500 µM
CCc1cn([C@H]2C[C@H](O)[C@@H](CO)S2)c(=O)[nH]c1=O ; value: >1800 µM
N#CC1(c2nc3ccccc3o2)C(=O)C(=O)N(C2C3CC4CC(C3)CC2C4)C(=O)C1=O ; value: >10 µg/mL